What was measured:
WT hDAT = molecular target: T1, WT hDAT (Homo sapiens, UniProt Q01959); assay: [3H]WIN 35,428 binding in intact PC12 cells transfected with WT hDAT
T1 construct: expressed in transfected cells; host or cells: rat PC12 cells (ATCC CRL-1721), pcDNA3.1+

Protein sequences, listed by entry. Tags and fused reporters are not part of them.
UniProt Q01959, whole entry: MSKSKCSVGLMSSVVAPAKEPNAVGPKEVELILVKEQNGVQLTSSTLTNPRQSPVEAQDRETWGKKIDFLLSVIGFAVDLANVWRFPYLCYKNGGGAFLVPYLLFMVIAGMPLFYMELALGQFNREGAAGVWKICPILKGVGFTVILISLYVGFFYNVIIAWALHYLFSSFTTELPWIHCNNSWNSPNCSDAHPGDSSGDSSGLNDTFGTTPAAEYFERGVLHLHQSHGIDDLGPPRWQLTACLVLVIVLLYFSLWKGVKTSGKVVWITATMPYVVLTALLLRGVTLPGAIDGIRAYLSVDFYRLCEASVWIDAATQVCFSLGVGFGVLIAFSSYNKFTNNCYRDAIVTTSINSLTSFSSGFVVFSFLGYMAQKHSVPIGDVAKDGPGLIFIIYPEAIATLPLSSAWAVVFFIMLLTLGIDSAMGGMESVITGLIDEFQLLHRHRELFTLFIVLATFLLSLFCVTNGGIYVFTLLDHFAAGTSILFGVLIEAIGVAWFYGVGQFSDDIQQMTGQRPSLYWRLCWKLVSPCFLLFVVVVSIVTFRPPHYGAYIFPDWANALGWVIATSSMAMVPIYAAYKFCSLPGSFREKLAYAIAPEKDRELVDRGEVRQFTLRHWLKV
UniProt Q01959, whole entry Y88F/H547A: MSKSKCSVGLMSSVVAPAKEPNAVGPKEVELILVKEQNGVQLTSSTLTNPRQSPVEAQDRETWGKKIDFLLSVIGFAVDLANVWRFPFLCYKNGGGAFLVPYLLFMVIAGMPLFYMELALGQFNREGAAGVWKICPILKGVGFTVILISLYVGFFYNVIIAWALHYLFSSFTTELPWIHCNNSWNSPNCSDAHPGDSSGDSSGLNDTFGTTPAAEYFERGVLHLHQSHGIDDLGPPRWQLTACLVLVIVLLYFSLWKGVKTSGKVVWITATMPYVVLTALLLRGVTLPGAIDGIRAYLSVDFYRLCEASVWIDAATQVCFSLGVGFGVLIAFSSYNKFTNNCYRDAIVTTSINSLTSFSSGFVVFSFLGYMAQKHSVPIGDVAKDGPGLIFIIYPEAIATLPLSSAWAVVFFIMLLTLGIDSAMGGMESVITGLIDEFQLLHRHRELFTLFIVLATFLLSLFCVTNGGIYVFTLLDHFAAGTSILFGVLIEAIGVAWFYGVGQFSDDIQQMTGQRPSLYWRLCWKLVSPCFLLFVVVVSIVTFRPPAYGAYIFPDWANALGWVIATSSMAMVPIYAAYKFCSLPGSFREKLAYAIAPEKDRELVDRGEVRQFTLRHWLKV
UniProt Q01959, whole entry Y88F/K92M/H547A: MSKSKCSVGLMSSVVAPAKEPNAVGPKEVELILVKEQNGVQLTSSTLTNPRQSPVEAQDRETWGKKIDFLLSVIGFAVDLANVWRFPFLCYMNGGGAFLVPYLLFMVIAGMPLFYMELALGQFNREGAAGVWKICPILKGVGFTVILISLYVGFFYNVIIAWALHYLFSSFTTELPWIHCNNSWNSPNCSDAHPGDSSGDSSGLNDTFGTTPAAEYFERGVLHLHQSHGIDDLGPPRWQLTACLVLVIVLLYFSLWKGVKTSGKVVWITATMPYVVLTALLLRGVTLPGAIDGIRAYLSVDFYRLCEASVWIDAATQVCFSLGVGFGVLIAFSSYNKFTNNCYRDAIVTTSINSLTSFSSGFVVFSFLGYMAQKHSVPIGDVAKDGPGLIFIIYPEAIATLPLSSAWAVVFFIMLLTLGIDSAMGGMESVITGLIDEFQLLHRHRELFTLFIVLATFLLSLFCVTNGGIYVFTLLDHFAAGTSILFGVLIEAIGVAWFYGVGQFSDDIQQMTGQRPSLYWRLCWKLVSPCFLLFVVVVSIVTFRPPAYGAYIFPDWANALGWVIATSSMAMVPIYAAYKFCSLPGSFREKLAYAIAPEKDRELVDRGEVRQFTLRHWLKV

hDAT Y88F/H547A = molecular target: T2, hDAT Y88F/H547A (Homo sapiens, UniProt Q01959, H547A/Y88F); assay: [3H]WIN 35,428 binding in intact PC12 cells transfected with Y88F/H547A hDAT
T2 construct: expressed in transfected cells; host or cells: rat PC12 cells (ATCC CRL-1721), pcDNA3.1+

hDAT Y88F/K92M/H547A = hDAT Y88F/K92M/H547A (Homo sapiens, UniProt Q01959, H547A/K92M/Y88F); assay: [3H]WIN 35,428 binding in intact PC12 cells transfected with Y88F/K92M/H547A hDAT; set-up: expressed in transfected cells; host or cells: rat PC12 cells (ATCC CRL-1721), pcDNA3.1+

In the case of “2beta-carbomethoxy-3-beta-(4-fluorophenyl)tropane [[^3H]WIN 35,428]”, the “Bmax of [3H]WIN 35,428 binding” value (WT hDAT) is reported as 5.02 ± 0.71 pmol/10^5 cells, the Kd (WT hDAT) is reported as 9.27 ± 1.32 nM and the “Bmax of [3H]WIN 35,428 binding” value (hDAT Y88F/H547A) is reported as 3.16 ± 0.78 pmol/10^5 cells. The Kd (hDAT Y88F/H547A) was 7.1 ± 0.74 nM, the “Bmax of [3H]WIN 35,428 binding” value (hDAT Y88F/K92M/H547A) was 1.96 ± 0.39 pmol/10^5 cells and the Kd (hDAT Y88F/K92M/H547A) was 27.7 ± 6.5 nM.
